{"source": "PubChem BioAssay AID504761 (Drosophila RNAi Screening Center, 2011)", "aim": "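Fly genes whose silencing reduces dengue virus type 2 infection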 (primary screen)", "cells": "D.Mel-2 cells from Drosophila", "knock-down reagent": "long dsRNA against Drosophila genes", "conditions": "infection with dengue virus type 2; dose and infection time not stated", "measurement": "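Cells stained for dengue envelope protein and imaged; percent of infected cells per well on duplicate plates, ranked by infection, with stained nuclei counted for cell number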", "scale": "infection score: higher = more virus-infected cells; cell count: higher = more cells in the well", "active means": "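Very low infection ranking in both replicate wells (chance probability at most 0.065), then a retest showing infection dropped 1.5-fold or more at p below 0.05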", "meaning of the calls": "active = confirmed: knock-down lowers infection; inactive = not picked or not confirmed", "note": "The deposit covers about 22,000 reagents; below is a random part of those that have a named target and a result. Of all reagents, 116 (0.52%) are marked active. 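Calls depend on retest data that are not deposited; infection was ranked per plate without normalising between plates; the unit of the infection score is not given.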 Raw values vary from plate to plate and are shown uncorrected. Unmarked entries are inactive. Further read-outs or replicates are left out here. The record does not give: the amount of reagent, the time to read-out."}
{"predicted target": "Wnt4", "DRSC id": "DRSC00976", "infection score, replicate 1": 1.96, "cell count, replicate 1": 5112}
{"predicted target": "Wnt4", "DRSC id": "DRSC03477", "infection score, replicate 1": 4.68, "cell count, replicate 1": 5772}
{"predicted target": "CG12310", "DRSC id": "DRSC09878", "infection score, replicate 1": 4.07, "cell count, replicate 1": 6038}
{"predicted target": "CG12310", "DRSC id": "DRSC25358", "infection score, replicate 1": 11.9, "cell count, replicate 1": 5714}
{"predicted target": "Hsp60A", "DRSC id": "DRSC20254", "infection score, replicate 1": 3.05, "cell count, replicate 1": 6073}
{"predicted target": "Osi17", "DRSC id": "DRSC12284", "infection score, replicate 1": 8.5, "cell count, replicate 1": 6150}
{"predicted target": "CG32023", "DRSC id": "DRSC08946", "infection score, replicate 1": 3.13, "cell count, replicate 1": 6079}
{"predicted target": "prtp", "DRSC id": "DRSC19804", "infection score, replicate 1": 15.2, "cell count, replicate 1": 6524}
{"predicted target": "prtp", "DRSC id": "DRSC22494", "infection score, replicate 1": 2.02, "cell count, replicate 1": 5435}

3 neighbouring reagents from above:
{"predicted target": "Hsp60A", "DRSC id": "DRSC20254", "infection score, replicate 1": 3.05, "cell count, replicate 1": 6073}
{"predicted target": "Osi17", "DRSC id": "DRSC12284", "infection score, replicate 1": 8.5, "cell count, replicate 1": 6150}
{"predicted target": "CG32023", "DRSC id": "DRSC08946", "infection score, replicate 1": 3.13, "cell count, replicate 1": 6079}

Additional reagents follow:
{"predicted target": "CG11241", "DRSC id": "DRSC11641", "infection score, replicate 1": 10.3, "cell count, replicate 1": 3969}
{"predicted target": "CG11241", "DRSC id": "DRSC22165", "infection score, replicate 1": 6.54, "cell count, replicate 1": 5336}
{"predicted target": "mRpL55", "DRSC id": "DRSC14764", "infection score, replicate 1": 6.63, "cell count, replicate 1": 5578}
{"predicted target": "Gmppb", "DRSC id": "DRSC12169", "infection score, replicate 1": 6.22, "cell count, replicate 1": 6624}
{"predicted target": "Ykt6", "DRSC id": "DRSC17970", "infection score, replicate 1": 3.18, "cell count, replicate 1": 5975}
{"predicted target": "Ykt6", "DRSC id": "DRSC26017", "infection score, replicate 1": 16.4, "cell count, replicate 1": 5796}
{"predicted target": "CG3008", "DRSC id": "DRSC00560", "infection score, replicate 1": 12.2, "cell count, replicate 1": 7003}
{"predicted target": "CG7886", "DRSC id": "DRSC16333", "infection score, replicate 1": 1.68, "cell count, replicate 1": 6617}
{"predicted target": "mRpL46", "DRSC id": "DRSC08391", "infection score, replicate 1": 5.02, "cell count, replicate 1": 4923}
{"predicted target": "CG5961", "DRSC id": "DRSC15927", "infection score, replicate 1": 18.9, "cell count, replicate 1": 6544}
{"predicted target": "CG5961", "DRSC id": "DRSC27152", "infection score, replicate 1": 8.15, "cell count, replicate 1": 6671}
{"predicted target": "fwe", "DRSC id": "DRSC10594", "infection score, replicate 1": 14.8, "cell count, replicate 1": 5822}
{"predicted target": "fwe", "DRSC id": "DRSC21400", "infection score, replicate 1": 4.97, "cell count, replicate 1": 5071}
{"predicted target": "ft", "DRSC id": "DRSC00819", "infection score, replicate 1": 4.87, "cell count, replicate 1": 6306}
{"predicted target": "Ge-1", "DRSC id": "DRSC02938", "infection score, replicate 1": 9.13, "cell count, replicate 1": 6188}
{"predicted target": "Ge-1", "DRSC id": "DRSC28827", "infection score, replicate 1": 19.2, "cell count, replicate 1": 5662}
{"predicted target": "FASN1", "DRSC id": "DRSC00268", "infection score, replicate 1": 5.27, "cell count, replicate 1": 2447}
{"predicted target": "FASN1", "DRSC id": "DRSC26498", "infection score, replicate 1": 1.15, "cell count, replicate 1": 1301}
